The chains behind the UniProt entries cited, without tags or fusion partners. Where a name states a change or a piece, a line headed by the entry shows the natural chain unless it says otherwise.
UniProt Q9KUH3: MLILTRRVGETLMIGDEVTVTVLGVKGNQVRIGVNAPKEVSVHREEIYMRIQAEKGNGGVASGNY

In publication PMC7858070:

Molecular target: CsrA (UniProt Q9KUH3)
Assay: EMSA
Conditions: initial shift at 375 nM CsrA, shift increases at 500 and 750 nM, reduced by 10- or 50-fold excess unlabeled aphA RNA; LightShift Chemiluminescent RNA EMSA kit conditions, 10 ul volume; 5% nondenaturing PAGE; buffer composition, pH and temperature not stated; recombinant protein; label: 3' biotin; probe letters rebuilt from the primers and the genome

**Q.** Does “GGGCUCUGUGAUAAGUAAUGUAAAGCAAUCUCACAGUUAAAGUAUGCAAAGACAUACGCCACUCUAGGUGAUAACCGGCUUUAUAAGGUGACAUAAGCAGACGAAUUUUGCGCUGCAGGUAUUUAAAUGCGUUGAUAUGCGUGCCAUUAGAAGCACAACAACCGUUUAGAUAGAGGUUUAUGUUGACUUAAUUUUUGGAUUGAAGACAUGUCAUUACCACACGUUAUCCUUACUGUUCUUAGCACACGCGAUGCAACCGGGUACGAUAUAACCAAAGAGUUUUCUGCUAGCAUUGGCUACUUCUGGAAAGCCAGCCAUCAGCAGGUAUAUCGUGAACUCAAUAAAAUGGGGGAACAGGGUUUAGUGACUUGUGUUCUGGAACCACAGGAAGGCAAACCAGAUCGCAAGGUUUAUUCUAUAACCCAAGCUGGCCGCAGCGC [aphA mRNA probe (+1 to +432)]” bind?
**A.** binds

The exact form of at least one protein or probe is not confirmed.
